# From PMC8637920, “Structure, Function and Regulation of a Second Pyruvate Kinase Isozyme in Pseudomonas aeruginosa” (Frontiers in Microbiology, 2021)
# Tested on: C=C(OP(=O)(O)O)C(=O)O
# Assay: purified protein
# Settings: PEP titration; no G6P
substance,measurement,value
PykFPA (Pseudomonas aeruginosa PAO1; P459A),K0.5,1.11 ± 0.05 mM
same,kcat,127 s⁻¹
same,kcat/Km,114000 M⁻¹ s⁻¹
PykFPA (Pseudomonas aeruginosa PAO1; P455A),K0.5,0.48 ± 0.02 mM
same,kcat,250 s⁻¹
same,kcat/Km,522000 M⁻¹ s⁻¹
PykFPA (Pseudomonas aeruginosa PAO1; P455A/P459A),K0.5,2.05 ± 0.53 mM
same,kcat,147 s⁻¹
same,kcat/Km,72000 M⁻¹ s⁻¹
